# Source: PubChem BioAssay AID624099 (ICCB-Longwood, 2012)
# Test: 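Human genes that papillomavirus E2 requires to repress the HPV18 LCR promoter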 (primary screen)
# Cell system: human C33A cervical carcinoma cells (HPV-negative) stably expressing BPV1 E2 and an HPV18 LCR luciferase reporter
# Reagents: siRNA pool against human genes, 40 nM
# Timing: 72 h
# Read-out: 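HPV18 LCR reporter light per well, converted to plate-wise z-scores that exclude control wells, and averaged over triplicate plates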
# Reading the numbers: mean z-score and z-score: higher = stronger reporter signal, weaker E2 silencing
# Call rule: 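Mean z ≥ 2 together with z ≥ 2 in two or more of the three replicates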
# This is an unselected part of about 21,000 deposited reagents. 497 of all reagents (2.4%) were called active. 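Higher z means weaker E2 silencing; only reporter increases were scored, and knock-downs that hurt cell survival may mask genuine repressor factors.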 Reagents against one gene are numbered here.
mean z-score,"z-score, replicate A","z-score, replicate B","z-score, replicate C",outcome,target,pool no.
0.08,0.09,0,0.15,inactive,MGAT5,1
1.69,2.16,1.18,1.72,inactive,LOC387746 (retired record),1
-0.94,-0.91,-1.12,-0.78,inactive,JADE2 (jade family PHD finger 2),1
0.02,-0.21,0.26,0,inactive,"ALG9 (ALG9 alpha-1,2-mannosyltransferase)",1
1.12,1.02,0.98,1.36,inactive,ANGPTL4 (angiopoietin like 4),1
0.17,-0.05,0.24,0.33,inactive,TMEM245 (transmembrane protein 245),1
-0.76,-0.83,-0.62,-0.82,inactive,BAHD1 (bromo adjacent homology domain containing 1),1
-0.99,-0.86,-1.01,-1.1,inactive,SLC22A3,1
0.17,0.26,0.22,0.03,inactive,ZNF773 (zinc finger protein 773),1
1.53,1.43,2.01,1.16,inactive,IDUA (alpha-L-iduronidase),1
-0.77,-0.82,-0.75,-0.74,inactive,GPR78 (G protein-coupled receptor 78),1
-0.19,-0.31,-0.21,-0.04,inactive,DOLK (dolichol kinase),1
-0.12,0.03,-0.42,0.02,inactive,SLC17A5,1
0.44,0.72,0.38,0.21,inactive,FLJ45337 (retired record),1
0.81,1.07,0.43,0.93,inactive,VWA5B2 (von Willebrand factor A domain containing 5B2),1
-0.17,-0.61,0.19,-0.08,inactive,"METTL9 (methyltransferase 9, His-X-His N1(pi)-histidine)",1
-0.06,-0.06,-0.16,0.03,inactive,CAV1 (caveolin 1),1
-1.14,-0.55,-1.55,-1.33,inactive,CAV1 (caveolin 1),2
-1.25,-1.37,-1.54,-0.86,inactive,OR4K15 (olfactory receptor family 4 subfamily K member 15),1
0.08,0.25,0.3,-0.3,inactive,SLC25A51,1
-1.34,-1.47,-1.24,-1.3,inactive,TAF1L (TATA-box binding protein associated factor 1 like),1
-0.31,-0.53,-0.18,-0.21,inactive,GNA14 (G protein subunit alpha 14),1
-0.16,-0.9,-0.16,0.59,inactive,SPTLC1 (serine palmitoyltransferase long chain base subunit 1),1
-1.7,-1.73,-1.71,-1.68,inactive,FMO5 (flavin containing dimethylaniline monoxygenase 5),1
-0.17,-0.28,-0.03,-0.18,inactive,TMEM192 (transmembrane protein 192),1

Single entries from the list.
Under “z-score, replicate B”, FMO5 (flavin containing dimethylaniline monoxygenase 5) reads -1.71
Entry of CAV1 (caveolin 1) #2 under “mean z-score”: -1.14

The listing continues.
mean z-score,"z-score, replicate A","z-score, replicate B","z-score, replicate C",outcome,target,pool no.
0.2,0.24,-0.09,0.44,inactive,ACKR5 (atypical chemokine receptor 5),1
-1.18,-0.47,-1.53,-1.54,inactive,AGK (acylglycerol kinase),1
-0.82,-1.01,-0.62,-0.84,inactive,LOC400163 (retired record),1
1.2,1.51,0.96,1.14,inactive,CXCR2 (C-X-C motif chemokine receptor 2),1
0.04,-0.26,0.31,0.07,inactive,SPATA31A7 (SPATA31 subfamily A member 7),1
2.44,2.21,2.73,2.39,active,ARRDC3 (arrestin domain containing 3),1
-0.8,-0.67,-0.89,-0.84,inactive,CCNO (cyclin O),1
-0.53,-0.56,-0.39,-0.63,inactive,EFNA5 (ephrin A5),1
0.44,0.88,0.07,0.37,inactive,ANXA3 (annexin A3),1
-1.84,-2.06,-1.78,-1.68,inactive,ATP6V1B2 (ATPase H+ transporting V1 subunit B2),1
-0.19,-0.25,0.04,-0.35,inactive,VKORC1L1 (vitamin K epoxide reductase complex subunit 1L1),1
0.28,0.48,0.2,0.17,inactive,SFTPB (surfactant protein B),1
0.04,0.27,-0.36,0.21,inactive,ARGLU1 (arginine and glutamate rich 1),1
0.11,-0.02,0.21,0.14,inactive,IL10 (interleukin 10),1
